From paper PMC6222558, “Synthesis and Evolution of Berberine Derivatives as a New Class of Antiviral Agents against Enterovirus 71 through the MEK/ERK Pathway and Autophagy” (Molecules : A Journal of Synthetic Chemistry and Natural …, 2018)

How the values were obtained:
Type in all cases: cell-based, enterovirus 71 (EV71)
Details in all cases: ratio of TC50 and IC50
[1] = test system: EV71 H strain (VR-1432, genotype C2); experiment: CPE inhibition assay for anti-EV71, H strain
Description: (§1) Thus, all newly synthesized BBR analogues were screened for their anti-EV71 potencies in African green monkey kidney (Vero) cells taking BBR as the positive control. EV71 strains used in the present study include different genotype strains, such as H strain (VR-1432, genotype C2), BrCr strain (VR-1775, genotype A), and JS-52 and SHZH98 (genotype C4). The potency against EV71 strains above mentioned of each tested compound was evaluated by the combination of its IC50 and selectivity index (SI) value as the important therapeutic indication.
(§2) Vero cells were purchased from the American Type Culture Collection (ATCC, […], MD, USA), and were cultured in Minimum Essential Medium (MEM) supplemented with 10% fetal bovine serum (FBS) (GIBCO, Grand Island, NY, USA) and antibiotics (100 U/mL penicillin and […] streptomycin) at 37 °C in a 5% CO2 incubator. EV71 strain SHZH98 isolated from the throat swab sample of an HFMD case occurring in 1998 in China was kindly provided by Dr. Qi Jin (Institute of Pathogen Biology, Chinese Academy of Medical Science and Peking Union Medical School, Beijing, China), and JS-52 strain was a kind gift from Dr. Xiangzhong Ye (Beijing Wantai Biological Pharmacy Enterprise Co., Ltd., Beijing, China). The EV71 BrCr and H strains were purchased from the ATCC. All of EV71 strains were passaged in Vero cells.
(§3) The anti-EV71 activities of all tested compounds were detected by the virus-induced CPE assay. Briefly, cells (3 × 10^4 cells/well) were plated into 96-well culture plates and incubated for 16 h. Then, remove the medium and infected cells with EV71 of 100 × TCID50 (50% tissue culture infective doses) in serum-free medium for 1 h at 37 °C. After that, the unbound viruses were removed and various concentrations of tested compounds were supplemented for incubation of another 72 h. […] TC50 defined as the concentration that leads to the 50% of CPE which determined by the same method in 72 h. In addition, the cells were stained the cells were colored with 0.5% crystal violet in 20% ethanol for 15 min at room temperature and the cells were imaged after rinsed with PBS.

[2] = test system: EV71 BrCr strain (VR-1775, genotype A); experiment: CPE inhibition assay for anti-EV71, BrCr strain
Description: as §1, §2, §3

[3] = test system: EV71 JS-52 strain (genotype C4); experiment: CPE inhibition assay for anti-EV71, JS-52 strain
Description: as §1, §2, §3

[4] = test system: EV71 SHZH98 strain (genotype C4); experiment: CPE inhibition assay for anti-EV71, SHZH98 strain
Description: as §1, §2, §3

SMILES	H Strain SI [1]	BrCr Strain SI [2]	JS-52 Strain SI [3]	SHZH98 Strain SI [4]
COc1cc2c(cc1OC(=O)OCc1ccccc1)CC[n+]1cc3c(OC)c(OC)ccc3cc1-2 [5g, 2,9,10-Trimethoxy-3-benzyloxyformyloxy protoberberine chloride]	1.85	3.19	5.16	3.05
COc1ccc2cc3[n+](cc2c1O)CCc1cc2c(cc1-3)OCO2 [compound 1]	2.31	2.41	3.00	2.62
COc1ccc2cc3[n+](cc2c1OCC(=O)c1ccc(C(F)(F)F)cc1)CCc1cc2c(cc1-3)OCO2 [2g, 2,3-Methylenedioxy-9-p-trifloromethylphenylformylmethylenoxy-10-methoxy protoberberine chloride]	3.47	5.18	4.62	4.46
CCOC(=O)COc1c(OC)ccc2cc3[n+](cc12)CCc1cc2c(cc1-3)OCO2 [2a, 2,3-Methylenedioxy-9-ethyloxyformylmethylenoxy-10-methoxy protoberberine chloride]	4.62	6.90	4.89	3.69
COc1ccc2cc3[n+](cc2c1OCC(=O)C(C)(C)C)CCc1cc2c(cc1-3)OCO2 [2c, 2,3-Methylenedioxy-9-pivalylmethylenoxy-10-methoxy protoberberine chloride]	2.02	6.54	3.84	3.24
COc1cccc(C(=O)COc2c(OC)ccc3cc4[n+](cc23)CCc2cc(OC)c(OC)cc2-4)c1 [4e, 2,3,10-Trimethoxy-9-m-methoxyphenylformylmethylenoxy protoberberine chloride]	10.5	8.36	7.35	5.18
